Results of unrelated studies side by side (data: NIAID ChemDB).

All rows: growth or infection tests; organism: Plasmodium falciparum

Fold resistance has wild type as its base. Conditions beyond the fields shown may differ between rows. Blank or dashed fields: not listed here. ECn is the concentration giving n% inhibition of infection, replication or growth. Percent inhibition refers to the dose given; in toxicity tests it is the harm to the cells.

SMILES | strain or isolate | changes | cells | read by | setting | measure | tested at | result
C=CCNc1nc(Nc2nc(-c3ccc(Cl)c(Cl)c3)cs2)nc(N(CC)CC)n1 | 3D7 |  |  |  |  | inhibition | 50 µg/mL | 2%
OCC1=C[C@@H]2OCC[C@@H]2[C@@H]1CO |  |  |  |  |  | MIC |  | 40.6 µg/mL
CCC[C@H]1O[C@@H]2CC(=O)O[C@@H]2C2=C1C(=O)c1c(O)cccc1C2=O | Dd2 |  |  | SYBR Green |  | inhibition | 2.1 µM | 90%
NCCSC[C@H](N)C(=O)N(O)C1C[C@@H](C(N)=O)N(C(=O)CCc2cn(-c3ccccc3)nc2-c2ccccc2)C1 | 3D7 |  | Red blood cells | flow cytometry | 96 h | EC50 |  | 29.5 µM
CC[C@H]1OC(=O)[C@H](C)[C@@H](OC2C[C@@](C)(OC)[C@@H](O)[C@H](C)O2)[C@H](C)[C@@H](OC2O[C@H](C)C[C@H](N(C)C)[C@H]2O)[C@](C)(OC2C[C@@H](O)[C@H](O)[C@H](C)O2)C[C@@H](C)C(=O)[C@H](C)[C@@H](O)[C@]1(C)O | 3D7 |  | RBC | fluorescence | 120 h | EC50 |  | 10.1 µM
N#Cc1nc2c(-c3nc4ccccc4[nH]3)c(N)n(CC(F)(F)C(F)(F)C(F)(F)F)c2nc1C#N | NF54 |  | Erythrocytes | hypoxanthine uptake / radiometric |  | EC50 |  | 0.36 µM
ClCCl | W2 | CQ-resistant | Human dermal fibroblasts | MTT |  | EC50 |  | 42.5 µg/mL
N#Cc1nc2c(-c3nc4ccccc4[nH]3)c(N)n(CCc3ccc(N)cc3)c2nc1C#N | NF54 |  | Erythrocytes | hypoxanthine uptake / radiometric |  | EC50 |  | 0.53 µM
NCCSC[C@H](N)C(=O)N(O)C1C[C@@H](C(N)=O)N(C(=O)c2ccc(-c3cccc([N+](=O)[O-])c3)o2)C1 | 3D7 |  | Red blood cells | flow cytometry | 48 h | EC50 |  | 151 µM
CN(C)CCn1c(N)c(-c2nc3ccccc3[nH]2)c2nc(C#N)c(C#N)nc21 | NF54 |  | Erythrocytes | hypoxanthine uptake / radiometric |  | EC50 |  | 0.14 µM
CCO/C(=N/NC(=O)NC)C(C)(O)c1ccc2ccccc2c1 | 3D7 |  |  | hypoxanthine uptake / radiometric |  | inhibition | 5 µM | 40%
CCCCSc1nc(Nc2nc(-c3ccc(Cl)c(Cl)c3)cs2)nc(N(CC)CC)n1 | 3D7 |  |  |  |  | inhibition | 50 µg/mL | 12%
N#Cc1nc2c(-c3nc4ccccc4[nH]3)c(N)n(CCc3cccc(Cl)c3)c2nc1C#N | NF54 |  | Erythrocytes | hypoxanthine uptake / radiometric |  | EC50 |  | 0.19 µM
CC(C)C(CO)[N-]C(=O)c1ccccn1.[Cl][Au] | 3D7 |  |  | LDH |  | inhibition | 20 µM | 43%
CCN(CC)CCCC(C)Nc1ccnc2cc(Cl)ccc12 | Dd2 | CQ-resistant |  | LDH |  | fold resistance |  | 23.73
CCOC(C)=O | W2 | CQ-resistant | Human dermal fibroblasts | MTT |  | EC50 |  | 58.3 µg/mL
CN[C@@H](CC1=c2c(O)c3c(c(O)c2N=C1)=NC=CS3(=O)=O)C(=O)O | Dd2 |  |  |  |  | MIC |  | 0.171 µM
CCN(CC)CCCC(C)Nc1ccnc2cc(Cl)ccc12 | Dd2 |  | Red blood cells | SYBR Green |  | EC50 |  | 0.07 µg/mL
CC(=O)O[C@@H]1CC[C@]2(C)C3C[C@H](OC(C)=O)[C@@]4(C)C(CC[C@@H]4C(C)CCCN(C)CCNc4ccnc5cc(Cl)ccc45)C3[C@H](OC(C)=O)C[C@@H]2C1 | D6 |  |  | SYBR Green |  | EC90 |  | 0.1906 µM
CCN(CC)c1nc(Nc2nc(-c3ccc(Cl)c(Cl)c3)cs2)nc(Sc2ccccc2)n1 | 3D7 |  |  |  |  | inhibition | 50 µg/mL | 1.5%
CCO/C(=N/NC(=O)NCc1ccccc1)C(C)(O)c1ccc2ccccc2c1 | 3D7 |  |  | hypoxanthine uptake / radiometric |  | inhibition | 5 µM | 5%
CCN(CC)CCCC(C)n1c(N)c(-c2nc3ccccc3[nH]2)c2nc(C#N)c(C#N)nc21 | NF54 |  | Erythrocytes | hypoxanthine uptake / radiometric |  | EC50 |  | 0.05 µM
C=C1C[C@@H]2/C=C(\CO)CC/C=C(\C)C[C@H](OC(=O)C(=C)CO)[C@H]2C1=C | Dd2 |  | Red blood cells | SYBR Green |  | EC50 |  | 0.807 µg/mL
CCOC(=O)N/N=C(/OCCc1ccccc1)C(C)(O)c1ccc2ccccc2c1 | 3D7 |  |  | hypoxanthine uptake / radiometric |  | inhibition | 5 µM | 0%
COc1ccc(Cn2c(N)c(-c3nc4ccccc4[nH]3)c3nc(C#N)c(C#N)nc32)cc1O | NF54 |  | Erythrocytes | hypoxanthine uptake / radiometric |  | EC50 |  | 1.27 µM
CCCCNc1nc(Nc2nc(-c3ccc(Cl)cc3)cs2)nc(N(CC)CC)n1 | 3D7 |  |  |  |  | inhibition | 50 µg/mL | 6.5%
N#Cc1nc2c(-c3nc4ccccc4[nH]3)c(N)n(CCc3ccccc3)c2nc1C#N | NF54 |  | Erythrocytes | hypoxanthine uptake / radiometric |  | EC50 |  | 0.28 µM
C=C[C@H]1CN2CC[C@H]1C[C@H]2[C@H](O)c1ccnc2ccc(OC)cc12 | W2 |  |  |  | 24 h | inhibition | 0.016 µg/mL | 71%
CC[C@H]1OC(=O)[C@H](C)[C@@H](OC2C[C@@](C)(OC)[C@@H](O)[C@H](C)O2)[C@H](C)[C@@H](OC2O[C@H](C)C[C@H](N(C)C)[C@H]2O)[C@](C)(O)C[C@@H](C)CN(C)[C@H](C)[C@@H](O)[C@]1(C)O | W2 Mef |  | RBC | fluorescence | 120 h | EC50 |  | 0.05 µM
N#Cc1nc2c(-c3nc4ccccc4[nH]3)c(N)n(Cc3ccc(O)cc3)c2nc1C#N | NF54 |  | Erythrocytes | hypoxanthine uptake / radiometric |  | EC50 |  | 0.29 µM

3 of the rows above, restated:

CC[C@H]1OC(=O)[C@H](C)[C@@H](OC2C[C@@](C)(OC)[C@@H](O)[C@H](C)O2)[C@H](C)[C@@H](OC2O[C@H](C)C[C@H](N(C)C)[C@H]2O)[C@](C)(OC2C[C@@H](O)[C@H](O)[C@H](C)O2)C[C@@H](C)C(=O)[C@H](C)[C@@H](O)[C@]1(C)O ; strain or isolate: 3D7 ; cells: RBC ; read by: fluorescence ; setting: 120 h ; measure: EC50 ; result: 10.1 µM
N#Cc1nc2c(-c3nc4ccccc4[nH]3)c(N)n(CCc3ccc(N)cc3)c2nc1C#N ; strain or isolate: NF54 ; cells: Erythrocytes ; read by: hypoxanthine uptake / radiometric ; measure: EC50 ; result: 0.53 µM
CCO/C(=N/NC(=O)NCc1ccccc1)C(C)(O)c1ccc2ccccc2c1 ; strain or isolate: 3D7 ; read by: hypoxanthine uptake / radiometric ; measure: inhibition ; tested at: 5 µM ; result: 5%